PubChem BioAssay AID624099, ICCB-Longwood – 2012
Here is an unselected part of about 21,000 reagents tested. Over the whole deposit, 497 (2.4%) are marked active. 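Higher z means weaker E2 silencing; only reporter increases were scored, and knock-downs that hurt cell survival may mask genuine repressor factors.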 No sequences are given here.

Screen: 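Knock-downs relieving repression by E2 of an HPV18 LCR luciferase reporter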 (primary screen)
System: human C33A cervical carcinoma cells (HPV-negative) stably expressing BPV1 E2 and an HPV18 LCR luciferase reporter
Knock-down reagent: siRNA pool against human genes, 40 nM
Time to read-out: 72 h
Detection: 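Per-well luciferase luminescence, z-scored on each plate against the plate mean and SD with control wells left out, then averaged across three replicate plates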
Scale: mean z-score and z-score: higher = stronger reporter signal, weaker E2 silencing
Active means: 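Hit if mean z-score reaches 2 and two or more of three replicate z-scores also reach 2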

| Target gene | mean z-score | z-score, replicate A | z-score, replicate B | z-score, replicate C | activity call |
| --- | --- | --- | --- | --- | --- |
| LRRC3B | -1.88 | -1.75 | -2.05 | -1.85 | inactive |
| SYCE1 | -0.35 | -0.3 | -0.44 | -0.31 | inactive |
| CEP57L1 | 6.48 | 6.26 | 6.09 | 7.09 | active |
| NPVF | 0.1 | 0.08 | -0.06 | 0.3 | inactive |
| FOLR2 | -0.8 | -0.65 | -0.88 | -0.87 | inactive |
| IL17RE | -0.95 | -0.68 | -1.01 | -1.18 | inactive |
| GBA3 | 0.06 | -0.12 | 0.49 | -0.2 | inactive |
| IQCB2P | 0.72 | 0.52 | 0.89 | 0.75 | inactive |
| ARHGAP18 | -0.72 | -0.59 | -0.66 | -0.91 | inactive |
| DET1 | 1.02 | 0.94 | 0.42 | 1.7 | inactive |
| PEAK1 | -0.29 | -0.38 | -0.3 | -0.2 | inactive |
| LOC390282 | 0.7 | 0.63 | 0.38 | 1.08 | inactive |
| ANKRD24 | 0.65 | 0.62 | 0.34 | 0.99 | inactive |
| SEC23IP | -0.75 | -0.76 | -0.81 | -0.68 | inactive |
| LOC392314 (retired record) | -0.93 | -0.68 | -0.98 | -1.13 | inactive |
| NALF2 | 1.7 | 2.24 | 1.66 | 1.22 | inactive |
| CYP20A1 | 1.3 | 1.15 | 1.5 | 1.25 | inactive |
| LDLRAD3 | -0.4 | 0.38 | -1.28 | -0.28 | inactive |
| TSSK2 | -0.4 | -0.67 | -0.63 | 0.09 | inactive |
| FBXO15 | 1.27 | 1.19 | 1.03 | 1.6 | inactive |
| CDK11A | -1.39 | -1.46 | -1.19 | -1.53 | inactive |
| TIAM1-AS1 | 0.16 | 0.04 | 0.11 | 0.32 | inactive |
| RNF223 | 0.16 | 0.2 | 0.69 | -0.42 | inactive |
| HUS1 | 1.2 | 1.13 | 1.4 | 1.07 | inactive |
| STK16 | -0.2 | -0.03 | -0.16 | -0.4 | inactive |
| SORCS3 | 0.4 | 0.39 | 0.24 | 0.57 | inactive |
| GPBAR1 | 0.45 | 0.28 | 0.6 | 0.48 | inactive |
| CCER1 | 0.32 | 0.5 | 0.13 | 0.35 | inactive |
| FSD2 | 0.43 | 0.48 | 0.61 | 0.19 | inactive |
| LOC400025 (retired record) | -0.05 | -0.15 | -0.21 | 0.22 | inactive |
| HSPB8 | 0.4 | 0.21 | 0.74 | 0.26 | inactive |
| PHLDB1 | -0.73 | -0.67 | -0.95 | -0.56 | inactive |
| GNAL | 0.92 | 0.82 | 1.11 | 0.85 | inactive |
| TTC7A | -0.34 | -0.42 | -0.5 | -0.09 | inactive |
| PGLYRP2 | -0.78 | -1.03 | -0.64 | -0.68 | inactive |
| DBH | 0.61 | 0.71 | 0.68 | 0.44 | inactive |
| UBA2 | -0.83 | -0.54 | -1.14 | -0.81 | inactive |
| CD99 | -0.64 | -0.67 | -0.4 | -0.86 | inactive |
| MYH10 | 0.19 | 0.22 | -0.02 | 0.38 | inactive |
| IRX2 | -0.38 | -0.38 | -0.49 | -0.28 | inactive |
| SMOC1 | 0.78 | 0.95 | 0.8 | 0.59 | inactive |
| MGAT4B | 0.87 | 1.21 | 0.74 | 0.65 | inactive |
| ANKRD13B | -0.09 | -0.06 | -0.27 | 0.06 | inactive |
| ATG3 | 0.7 | 0.55 | 0.8 | 0.76 | inactive |
| KRT19 | -0.11 | -0.06 | -0.23 | -0.02 | inactive |
| FLJ40194 | 0.31 | 0.29 | 0.31 | 0.33 | inactive |
| CCDC174 | -0.89 | -0.56 | -1.04 | -1.08 | inactive |
| GALNT16 | -0.14 | -0.19 | -0.19 | -0.03 | inactive |
| GAK | 0.48 | 0.25 | 0.29 | 0.9 | inactive |
| RPL13AP13 | 0.21 | 0.47 | -0.12 | 0.29 | inactive |
| MBTPS1 | -0.74 | -0.55 | -0.99 | -0.67 | inactive |
| LINC01538 | 0.68 | 0.79 | 0.55 | 0.69 | inactive |
| RAB33B | -1 | -1.06 | -0.86 | -1.09 | inactive |
| PDCD2 | -0.12 | -0.04 | -0.37 | 0.04 | inactive |
| ATP11B | 0.07 | -0.03 | 0.05 | 0.2 | inactive |
| KPNA6 | 1.24 | 1.36 | 1.3 | 1.08 | inactive |
| ADAM18 | -1.61 | -1.56 | -1.68 | -1.6 | inactive |

Records listed so far marked active:
| Target gene | mean z-score | z-score, replicate A | z-score, replicate B | z-score, replicate C | activity call |
| --- | --- | --- | --- | --- | --- |
| CEP57L1 | 6.48 | 6.26 | 6.09 | 7.09 | active |
